Pooled drug test results. Numbers come from NIAID ChemDB, via PubChem.

Shared fields: tests in culture; organism: HIV-1; read by: antigen; read-out: EC50

ECn: concentration that inhibits the pathogen or its effect by n%.

structure,cells,strain or isolate,value
Cc1cn([C@@H]2O[C@H](COC(c3ccccc3)(c3ccccc3)c3ccccc3)[C@@H](OS(C)(=O)=O)[C@@H]2F)c(=O)[nH]c1=O,H9,IIIB,>1000 µM
C#C[C@@]1(O)[C@@H]([C@@H](C)O)O[C@@H](n2ccc(=O)[nH]c2=O)[C@@H]1O,MT-4,IIIB,>100 µM
Nc1ncnc2c1ncn2[C@H]1C[C@@H](CO)O1,MT-4,IIIB,0.04 µg/mL
CCCNP(=O)(NCCC)OC[C@H]1O[C@@H](n2cc(C)c(=O)[nH]c2=O)C[C@@H]1N=[N+]=[N-],C8166,RF,10 µM
Cc1cn([C@@H]2O[C@H](COC(c3ccccc3)(c3ccccc3)c3ccccc3)[C@@H](F)[C@H]2N=[N+]=[N-])c(=O)[nH]c1=O,H9,IIIB,>1000 µM
COC(=O)[C@H](C)NP(=O)(N[C@@H](C)C(=O)OC)OC[C@H]1O[C@@H](n2cc(C)c(=O)[nH]c2=O)C[C@@H]1N=[N+]=[N-],C8166,RF,2 µM
Nc1ncnc2c1ncn2[C@@H]1O[C@H](CO)[C@]1(O)CO,MT-4,IIIB,<2 µg/mL
Nc1ccn([C@H]2CC[C@@H](CO)C2)c(=O)n1,H9,IIIB,5 µM
C#C[C@@]12OC[C@]1(CO)O[C@@H](n1ccc(=O)[nH]c1=O)[C@@H]2O,MT-4,IIIB,>100 µM
Cc1cn(N2C[C@H](CO)[C@H]2CO)c(=O)[nH]c1=O,MT-4,,>100 µg/mL
C=C(CC[C@@H](C)[C@H]1CC=C2C3=C([C@@H](O)[C@H](OC(C)=O)[C@@]21C)[C@@]1(C)C[C@@H](OC(=O)CCC(=O)O)[C@H](O)C(C)(C)[C@@H]1CC3)C(C)C,H9,,<6 µM
Cc1cn([C@@H]2O[C@H](CO)C[C@H]2F)c(=O)[nH]c1=O,H9,IIIB,>1000 µM
C#C[C@]1(OC(C)=O)[C@@H](OC(C)=O)[C@H](n2ccc(N)nc2=O)OC1(COC(C)=O)COC(C)=O,MT-4,IIIB,>100 µM
COC(=O)[C@@H](NP(=O)(N[C@H](C(=O)OC)C(C)C)OC[C@H]1O[C@@H](n2cc(C)c(=O)[nH]c2=O)C[C@@H]1N=[N+]=[N-])C(C)C,C8166,RF,0.1 µM
Cc1cn2c(nc1=O)OC1[C@H]2O[C@H](COC(c2ccccc2)(c2ccccc2)c2ccccc2)[C@H]1OC(=S)n1ccnc1,H9,IIIB,>1000 µM
Cc1cn([C@H]2CC[C@@H](CO)C2)c(=O)[nH]c1=O,H9,IIIB,10 µM
Cc1cn([C@@H]2O[C@H](COC(c3ccccc3)(c3ccccc3)c3ccccc3)C[C@H]2F)c(=O)[nH]c1=O,H9,IIIB,>1000 µM
CC(C)(C)NC(=O)[C@@H]1CCCN1C(=O)[C@@H](O)[C@H](Cc1ccccc1)NC(=O)[C@H](CC(N)=O)NC(=O)COc1ccccc1[N+](=O)[O-],MT-4,,6 µg/mL
CCc1c(Sc2ccccc2)n(COCc2ccccc2)c(=O)[nH]c1=O,CEM,,<0.04 µM
C=C(CC[C@@H](C)[C@H]1CCC2C3=C([C@@H](O)[C@H](OC(C)=O)[C@@]21C)[C@@]1(C)C[C@@H](O)[C@H](OS(=O)(=O)O)C(C)(C)[C@@H]1CC3)C(C)C,H9,,<50 µM
O=c1[nH]cnc2c1ncn2[C@H]1C[C@@H](CO)O1,MT-4,,<3 µg/mL
C#C[C@]1(O)[C@@H](O)[C@H](n2ccc(N)nc2=O)OC1(CO)CO,MT-4,IIIB,>100 µM
CCCCCCOP(=O)([O-])OCC[NH2+]C,C8166,,>100 µM
Nc1nc(NC2CC2)c2ncn([C@H]3C=C[C@@H](CO)C3)c2n1,MM + M/M,BaL,0.1 µM
Cc1cn([C@@H]2O[C@H](COC(c3ccccc3)(c3ccccc3)c3ccccc3)C[C@H]2F)c(=O)nc1N,H9,IIIB,>1000 µM
CCc1c(Cc2cccc3ccccc23)nc(SCC(=O)NC)[nH]c1=O,MT-4,IIIB,>100 µM
Cc1cn2c(nc1=O)O[C@H]1C[C@@H](COC(c3ccccc3)(c3ccccc3)c3ccccc3)O[C@H]12,H9,IIIB,>1000 µM
C=C(CC[C@@H](C)[C@H]1CC=C2C3=C([C@@H](O)[C@H](OC(C)=O)[C@@]21C)[C@@]1(C)C[C@@H](O)[C@H](OC(=O)CCC(=O)O)C(C)(C)[C@@H]1CC3)C(C)C,H9,,<6 µM
C#C[C@@]1(OC(C)=O)[C@@H]([C@@H](COC(C)=O)OC(C)=O)O[C@@H](n2ccc(=O)[nH]c2=O)[C@@H]1OC(C)=O,MT-4,IIIB,>100 µM
[N-]=[N+]=NC[C@H]1[C@H](n2cnc3c(N)ncnc32)O[C@@H]1CO,MT-4,IIIB,0.8 µg/mL
CC(=O)OC[C@H]1O[C@@H](n2cc(C)c(=O)[nH]c2=O)C[C@@H]1F,H9,IIIB,>1000 µM
COC(=O)C(=O)N1CCC[C@H]1C(=O)N[C@@H](Cc1ccccc1)C(=O)N[C@@H](CC(N)=O)C(=O)N[C@@H](Cc1ccccc1)[C@H](O)C(=O)N1CCC[C@H]1C(=O)NC(C)(C)C,MT-4,,>100 µg/mL
Nc1ncnc2c1ncn2[C@@H]1O[C@H](CO)[C@H]1F,MT-4,,~10 µg/mL
COc1cc(O)c2c(c1)C(=O)c1c(cc3c(c1O)-c1c(cc(C)c(C(=O)N[C@H](C)C(=O)O)c1O)[C@H](O[C@@H]1O[C@H](C)[C@H](N)[C@H](O[C@@H]4OC[C@@H](O)[C@H](O)[C@@H]4O)[C@H]1O)[C@H]3O)C2=O,MT-4,IIIB,<10 µg/mL
Nc1ncnc2c1ncn2[C@@H]1O[C@H](CO)[C@@H]1O,MT-4,,<3 µg/mL
COC(=O)C(=O)N1CCC[C@H]1C(=O)N[C@H](Cc1ccccc1)C(=O)NCCCc1ccc(OCC(=O)N[C@@H](CC(N)=O)C(=O)N[C@@H](Cc2ccccc2)[C@H](O)C(=O)N2CCC[C@H]2C(=O)NC(C)(C)C)cc1,MT-4,,>100 µg/mL
[N-]=[N+]=N[C@H]1[C@H](n2cnc3c(N)ncnc32)O[C@@H]1CO,MT-4,,<100 µg/mL
CCOC(=O)COP(=O)([O-])OCC[NH2+]C,C8166,,100 µM
CCc1cn([C@@H]2C[C@H](F)[C@@H](CO)O2)c(=O)[nH]c1=O,H9,IIIB,0.1 µM
CC(C)(C)NC(=O)[C@@H]1CCCN1C(=O)[C@@H](O)[C@H](Cc1ccccc1)NC(=O)[C@H](CC(N)=O)NC(=O)COc1ccccc1,MT-4,,4.5–6 µg/mL
C#C[C@@]1(O)[C@@H](CO)O[C@@H](n2ccc(N)nc2=O)[C@@H]1O,MT-4,IIIB,>100 µM

Repeating the first 3 entries:

structure | cells | strain or isolate | value
Cc1cn([C@@H]2O[C@H](COC(c3ccccc3)(c3ccccc3)c3ccccc3)[C@@H](OS(C)(=O)=O)[C@@H]2F)c(=O)[nH]c1=O | H9 | IIIB | >1000 µM
C#C[C@@]1(O)[C@@H]([C@@H](C)O)O[C@@H](n2ccc(=O)[nH]c2=O)[C@@H]1O | MT-4 | IIIB | >100 µM
Nc1ncnc2c1ncn2[C@H]1C[C@@H](CO)O1 | MT-4 | IIIB | 0.04 µg/mL

Blank or dashed fields: not listed here. Rows are shuffled and stem from different studies. Two numbers with a dash give a range or band.